Laboratory results as given in patent US10233179B2, “Thiazoles and uses thereof” (AbbVie Inc., priority 2013, dated 2019).

Test system: RSV (Group A, Long Strain)
Test: Antiviral cytopathic effect (CPE) protection assay, MTT readout
Assay type: cell-based, human respiratory syncytial virus (RSV)
Settings: ratio of MTT TD50 to RSV EC50; NW = no window
Procedure: HEp-2 cells and RSV (Group A, Long Strain) were obtained from the American Type Culture Collection (Manassas, Va.).
A cytopathic effect (CPE) protection assay was performed to determine the ability of a compound to protect the cells from viral infection and thus the CPE induced by viral infection. 96-Well plates were first seeded with 3×10^3 HEp-2 cells per well in Dulbecco's modified Eagle's medium (DMEM) containing 10% fetal bovine serum (FBS). One day after the cells were seeded, they were preincubated with serial dilutions of compounds prepared in 100 μL assay medium (DMEM mixed with F12 medium at a 1:1 ratio, supplemented with 2% FBS and 1 mM sodium pyruvate) for 1 hour at 37° C. 100 μL of assay medium containing 0.2 multiplicity of infection (MOI) of RSV was then added to each well of cells. In addition to wells containing infected cells incubated with compounds, each plate also contained replicates of two kinds of controls: (1) Virus control contained cells infected with 0.2 MOI of RSV in assay medium, (2) Uninfected cell control contained cells incubated with assay medium only. After 4 days of incubation at 37° C., the viability of cells was assessed using MTT (Thiazolyl blue tetrazolium bromide, Sigma). A stock solution of MTT, at a concentration of 4 mg/mL in phosphate-buffered saline, was added to all wells at 25 μL per well. Plates were further incubated for 4 hours, and each well was then treated with 50 μL of a solution containing 20% sodium dodecyl sulfate (SDS) and 0.02 N HCl. After an overnight incubation, the plates were measured on a BioTek® microtiter plate reader at wavelengths of 570 nm and 650 nm. The MTT detection is based on the fact that viable (uninfected) cells can reduce the tetrazolium salts into colored formazan products, which can then be quantitated by spectrometry. Based on the spectrometric absorbance of each sample, the percent of protection from CPE, which is an indicator of protection from viral infection, can be calculated for each compound and the 50% effective concentrations (EC50) can be calculated using a nonlinear regression curve fitting equation provided by the GraphPad Prism® 4 software.
Compounds were tested to determine both their antiviral and toxicity to determine their therapeutic window. Determination of the EC50 and TD50 of these active compounds were repeated one additional time to confirm the window.

Structure (SMILES)	Window (TD50/EC50)
CC(Cc1cccs1)N(Cc1cccn1-c1nccs1)Cc1cccn1-c1nccs1 (stereo not shown) [Example 64, N,N-bis{[1-(1,3-thiazol-2-yl)-1H-pyrrol-2-yl]methyl}-1-(thiophen-2-yl)propan-2-amine]	17
c1cncc(C2(CN(Cc3cccn3-c3nccs3)Cc3cccn3-c3nccs3)CC2)c1 [Example 65, 1-[1-(pyridin-3-yl)cyclopropyl]-N,N-bis{[1-(1,3-thiazol-2-yl)-1H-pyrrol-2-yl]methyl}methanamine]	273
c1cc(CN(CCC2(c3ccncc3)CC2)Cc2cccn2-c2nccs2)n(-c2nccs2)c1 [Example 66, 2-[1-(pyridin-4-yl)cyclopropyl]-N,N-bis{[1-(1,3-thiazol-2-yl)-1H-pyrrol-2-yl]methyl}ethanamine]	73
N#Cc1cc(CN(Cc2cccn2-c2nccs2)Cc2cccn2-c2nccs2)cs1 [Example 67, 4-[(bis{[1-(1,3-thiazol-2-yl)-1H-pyrrol-2-yl]methyl}amino)methyl]thiophene-2-carbonitrile]	>389
